Measured values from several laboratories, pooled; numbers as filed in NIAID ChemDB.

All rows: growth or infection tests; organism: HIV-1

Lines come from different laboratories, so protocols vary.

structure	method	strain	conditions	read-out	cells	mutations	value
CCC(=CCN1Cc2cc(Cl)cc3[nH]c(=S)n(c23)C[C@@H]1C)CC	cytopathic effect / MTT			EC50	MT-4		0.006 µg/mL
O=C(CSc1nnnn1-c1cccc2ccccc12)Nc1ccc(Cl)cc1Cl	p24			EC95	MT-4		<10 µM
Nc1ccn([C@H]2CC[C@@H](CO)O2)c(=O)n1				EC50	Primary lymphocytes + Lymphocytes		0.03 µM
Cc1cn([C@@H]2CC[C@H](CO)O2)c(=O)[nH]c1=O	RT activity	LAI		EC50	PBMC		>100 µM
Cc1cn(CC2(COCP(=O)(OC(C)C)OC(C)C)CC=CC2)c(=O)[nH]c1=O				EC50	MT-4		>100 µg/mL
Cc1cc(C)nc(NS(=O)(=O)c2ccc(N=C3C(=O)Nc4ccc(Cl)cc43)cc2)n1	cytopathic effect / MTT	IIIB		EC50	MT-4		10.3 µg/mL
O=S(=O)(O)OC1C(OS(=O)(=O)O)C(OS(=O)(=O)O)C(OS(=O)(=O)O)C(OS(=O)(=O)O)C1OS(=O)(=O)O	cytopathic effect / MTT	NL4-3		EC50	MT-4	GP120-N323D	9.6 µg/mL
Nc1ncnc2c1ncn2[C@@H]1C[C@@H](N)[C@H](CO)O1	RT activity	LAI		EC50	PBMC		>10 µM
Cc1cn([C@H]2C[C@H](N=[N+]=[N-])[C@@H](CO)O2)c(=O)[nH]c1=O				EC50	MT-4		0.0009 µg/mL
Cc1cc(C)c(-n2nnnc2SCC(=O)Nc2cc(C)on2)c(C)c1	p24			EC50	MT-4		<10 µM
COc1cc2c(OC3OC[C@@H](O)[C@H](OC(=O)N(C)C)[C@H]3O)c3c(c(-c4ccc5c(c4)OCO5)c2cc1OC)C(=O)OC3	luciferase	NL4-3	pseudotyped	EC50	293T		>0.0558 µM
C[C@H]1Cn2c(=O)[nH]c3cc(Cl)cc(c32)CN1CCC1CC1	cytopathic effect / MTT			EC50	MT-4		0.0166 µg/mL
Cc1cn([C@H]2C[C@H](F)[C@@H](COP(=O)(O)O)O2)c(=S)[nH]c1=O	syncytia			EC50	MT-2		0.5 µM
CC(C)=CCN1Cc2cccc3[nH]c(=S)n(c23)[C@@H](C)[C@@H]1C	cytopathic effect / MTT			EC50	MT-4		0.038 µg/mL
Cc1cn([C@H]2C[C@H](N=[N+]=[N-])[C@@H](CO)O2)c(=O)[nH]c1=O	cytopathic effect	B-1 (RT L100V K103R/K Y188H)		EC50	CEM	RT-L100V K103R/K Y188H	0.004 µM
Cc1cc(C)nc(NS(=O)(=O)c2ccc(N=C3C(=O)Nc4ccccc43)cc2)n1	cytopathic effect / MTT	IIIB		EC50	MT-4		8 µg/mL
O[C@]12C=C(Cc3cnccn3)[C@@H]3CCN(CCCC/C=C\CC1)C[C@@]31C[C@@H]3CCCCCCN3C12	RT activity	LAV		EC90	PBMC		>100 µM
C[C@H](Cn1cnc2c(N)ncnc21)OCP(=O)(O)O				EC50	MM + M/M		0.04 µM
C=CCOC(=O)O[C@@H]1COC(Oc2c3c(c(-c4ccc5c(c4)OCO5)c4cc(OC)c(OC)cc24)C(=O)OC3)[C@H](O)[C@H]1OC(C)=O	luciferase	NL4-3	pseudotyped	EC50	293T		>0.5127 µM
Nc1nc(=O)n([C@@H]2C[C@@H](F)[C@H](CO)O2)cc1F	RT activity	LAI		EC50	PBMC		>100 µM
O=c1[nH]cnc2c1ncn2[C@H]1CC[C@@H](CO)O1				EC50	Primary lymphocytes + Lymphocytes		0.5 µM
Nc1ccn([C@@H]2CO[C@H](CO)S2)c(=O)n1	cytopathic effect / MTT	RF		EC50	C8166		28 µM
Cc1cn([C@@H]2C[C@@H](O)[C@H](CO)O2)c(=O)[nH]c1=O	RT activity	LAI		EC50	PBMC		>200 µM
CCN(CC)C(=O)N1CCN(C(=O)N2CCN(C)CC2)CC1	MTT	NL4-3		EC50	MT-4		>125 µg/mL
OC[C@@H]1[C@@H](O)[C@H](O)[C@@H](O)CN1C/C=C/c1ccccc1	syncytia	IIIB		EC50	MOLT-4		8.7 µM
Cc1cn([C@@H]2O[C@H](CO[Si](C)(C)C(C)(C)C)C3(OS(=O)(=O)C=C3N)[C@H]2O[Si](C)(C)C(C)(C)C)c(=O)n(C)c1=O				EC50	Primary lymphocytes + Lymphocytes		0.058 µg/mL
C=C[C@@]1(CO)CO[C@H](n2cc(C)c(=O)[nH]c2=O)C1				EC50	MT-4		60.2 µg/mL
CCc1cc(-c2ccc(C(F)(F)F)o2)n(-c2ccc3c(c2)nc(-c2cc(C(=O)N4CCCC4)ccc2O)n3CC2=CCC(=O)N=C2)n1	luciferase	NL4-3		EC50			0.062 µM
CC(C)=CCN1Cc2cccc3[nH]c(=S)n(c23)C[C@H]1C	cytopathic effect / MTT			EC50	MT-4		0.045 µg/mL
OC[C@H]1NC[C@H](O)[C@@H](O)[C@@H]1O	syncytia	IIIB		EC50	MOLT-4		270 µM
Cc1ccc2c(c1)C(=Nc1ccc(S(=O)(=O)Nc3nc(C)cc(C)n3)cc1)C(=O)N2	cytopathic effect / MTT	IIIB		EC50	MT-4		8.1 µg/mL
Cc1ccccc1NC(=O)CSc1nnnn1-c1cccc2ccccc12	p24			EC50	MT-4		<10 µM
Cc1cn([C@H]2C[C@H](N=[N+]=[N-])[C@@H](CO)O2)c(=O)[nH]c1=O	p24	Subtype B isolate		EC50	PBMC		0.0015 µM
O[C@]12C=C(Cc3cc4cc(F)ccc4[nH]3)[C@@H]3CCN(CCCC/C=C\CC1)C[C@@]31C[C@@H]3CCCCCCN3C12	RT activity	LAV		EC90	PBMC		11.5 µM
Nc1nc(NC2CC2)c2ncn([C@H]3C=C[C@@H](CO)C3)c2n1	p24			EC50	PBMC	MDR769	0.9 µM
COc1cc2c(OC3O[C@H](C)[C@@H](O)[C@H](OC(=O)C(Cl)(Cl)Cl)[C@H]3O)c3c(c(-c4ccc5c(c4)OCO5)c2cc1OC)C(=O)OC3	luciferase	NL4-3	pseudotyped	EC50	293T		>0.5078 µM
Cc1cc(C)c(-n2nnnc2SCC(=O)Nc2ccc(F)cc2Cl)c(C)c1	p24			EC95	MT-4		<10 µM
C[C@]1(Br)C(=O)NC(=O)N([C@H]2C=C[C@@H](CO)O2)[C@@H]1O	cytopathic effect / XTT	RF		EC50	CEM		>200 µM
CC(C)=CCN1Cc2cc(Cl)cc3[nH]c(=S)n(c23)C[C@@H]1C	cytopathic effect / MTT			EC50	MT-4		0.005 µg/mL
CCc1cc(-c2ccc(C)o2)n(-c2ccc3c(c2)nc(-c2ccccc2O)n3CC2=CCC(=O)N=C2)n1	luciferase	NL4-3		EC50			0.26 µM
Nc1ccn([C@@H]2C=C[C@H](CO)O2)c(=O)n1	RT activity	LAI		EC50	PBMC		1 µM
Cc1ccnc2c1NC(=O)c1cccnc1N2C1CC1				EC95	MT-4	RT-L74V Y181C	>3 µM
[B-][P@](=O)(OC[C@H]1O[C@@H](n2cc(C)c(=O)[nH]c2=O)C[C@@H]1N=[N+]=[N-])OP(=O)(O)C(F)(F)P(=O)(O)O				EC50	CEM		1.1 µM
C=CCOC(=O)O[C@@H]1COC(Oc2c3c(c(-c4ccc5c(c4)OCO5)c4cc(OC)c(OC)cc24)C(=O)OC3)[C@H](OC(=O)OCC=C)[C@H]1O	luciferase	NL4-3	pseudotyped	EC50	293T		>0.4383 µM
CN(C)C(=O)N1CCN(C(=O)N(C)CCN2CCCC2)CC1	MTT	NL4-3		EC50	MT-4		72 µg/mL
CC(C)=CCN1CCn2c(=S)[nH]c3ccc(Cl)c(c32)C1	cytopathic effect / MTT			EC50	MT-4		0.1 µg/mL
Cc1ccnc2c1NC(=O)c1cccnc1N2C1CC1	p24	IIIB		EC50	C8166		0.0212 µM
Cc1cc(C)c(-n2nnnc2SCC(=O)Nc2ccc([N+](=O)[O-])cc2Cl)c(C)c1	p24			EC50	MT-4		<10 µM
CCc1c(C)[nH]c(=O)c([N+](=O)[O-])c1Sc1cc(C)cc(C)c1	RT activity	Isolated virion		EC50			<1 µM
O=C1CCCN2C3[C@@]45CN6CCCC/C=C/CC[C@@]3(C=C(c3nccc7c3[nH]c3ccccc37)[C@@H]4CC6)O[C@]2(CC1)C5	RT activity	LAV		EC50	PBMC		0.59 µM
Cc1cc(C)c(-n2nnnc2SCC(=O)Nc2ccc(C#N)cc2)c(C)c1	p24			EC50	MT-4		<10 µM
COc1cc2c(OC3O[C@H](C)[C@@H](O)[C@H](OC(=O)N(C)C)[C@H]3O)c3c(c(-c4ccc5c(c4)OCO5)c2cc1OC)C(=O)OC3	luciferase	NL4-3	pseudotyped	EC50	293T		>0.00374 µM
Cc1cn([C@H]2C[C@H](N=[N+]=[N-])[C@@H](CO)O2)c(=O)[nH]c1=O	p24	NL4-3		EC50	MT-2	PR-V82A	0.002 µM
Cc1cn([C@H]2C[C@H](N=[N+]=[N-])[C@@H](CO)O2)c(=O)[nH]c1=O	MTT			EC50	MT-4		0.0007 µg/mL
OC[C@@H]1[C@@H](O)[C@H](O)[C@@H](O)CN1CC#Cc1ccccc1	syncytia	IIIB		EC50	MOLT-4		250 µM
CO[C@H]1N([C@H]2C=C[C@@H](CO)O2)C(=O)NC(=O)[C@]1(C)Cl	cytopathic effect / XTT	RF		EC50	CEM		375 µM
Cc1cn([C@H]2C[C@H](N=[N+]=[N-])[C@@H](CO)O2)c(=O)[nH]c1=O				EC50	MT-4		0.007 µg/mL
Nc1ccn([C@@H]2CS[C@H](CO)O2)c(=O)n1	p24	Subtype B isolate		EC50	PBMC		0.01 µM
Cc1cn([C@H]2C[C@H](N=[N+]=[N-])[C@@H](CO)O2)c(=O)[nH]c1=O	cytopathic effect / MTT	NL4-3		EC50	MT-4		0.0337 µM
Nc1ccn([C@@H]2C[C@@H](F)[C@H](CO)O2)c(=O)n1	RT activity	LAI		EC50	PBMC		82 µM
CN1CCN(C(=O)N2CCN(C(=O)N(C)C)CC2)CC1	MTT	NL4-3		EC50	MT-4		>125 µg/mL
C[C@@]1(Br)C(=O)NC(=O)N([C@H]2C=C[C@@H](CO)O2)[C@H]1O	cytopathic effect / XTT	RF		EC50	CEM		>200 µM
CCc1cc(NCc2nc3c(Cl)ccc(Cl)c3o2)c(=O)[nH]c1C	syncytia	D34		EC50	PBL	TIBO-resistant	~9 µM
C=C(C)[C@@H]1CC[C@]2(C(=O)NCCCCCCCC(=O)N[C@@H](CC(C)C)[C@H](O)CC(=O)O)CC[C@]3(C)[C@H](CC[C@@H]4[C@@]5(C)CC[C@H](O)C(C)(C)[C@@H]5CC[C@]43C)[C@@H]12	RT activity	QZ4734		EC50	PBMC		<2.65 µM
CCCCOC(=O)N1CCN(C(=O)N(C)C)CC1	MTT	NL4-3		EC50	MT-4		>39.3 µg/mL
CC(C)Nc1cccnc1N1CCN(C(=O)c2cc3cc(NS(C)(=O)=O)ccc3[nH]2)CC1	cytopathic effect	IIIB		EC50	CEM		0.003 µg/mL
Cc1cnc(CC2=C[C@@]3(O)CC/C=C\CCCCN4CC[C@@H]2[C@]2(C[C@@H]5CCCCCCN5C23)C4)cn1	RT activity	LAV		EC90	PBMC		57.9 µM
CCN(CC)C(=O)N1CCN(C(=O)N(C)CCN2CCCC2)CC1	MTT	NL4-3		EC50	MT-4		36.4 µg/mL
CC1(CO)COC(c2c[nH]c3c(N)ncnc23)C1	XTT			EC50	CEM		5.1 µg/mL
OC[C@@H]1[C@@H](O)[C@H](O)[C@@H](O)CN1CCCC1CCCCC1	syncytia	IIIB		EC50	MOLT-4		17 µM
Cc1ccnc2c1NC(=O)c1cccnc1N2C1CC1	cytopathic effect	D-3 (RT-V108I M184I)		EC50	CEM	RT-V108I M184I	0.02 µg/mL
C[C@]1(Br)C(=O)NC(=O)N([C@H]2C=C[C@@H](CO)O2)[C@@H]1N=[N+]=[N-]	cytopathic effect / XTT	RF		EC50	CEM		0.918 µM
Cc1cc(C)c(-n2nnnc2SCC(=O)Nc2ccc(F)cc2Br)c(C)c1	p24			EC50	MT-4		<10 µM

Again, the opening 7 rows:

CCC(=CCN1Cc2cc(Cl)cc3[nH]c(=S)n(c23)C[C@@H]1C)CC ; method: cytopathic effect / MTT ; read-out: EC50 ; cells: MT-4 ; value: 0.006 µg/mL
O=C(CSc1nnnn1-c1cccc2ccccc12)Nc1ccc(Cl)cc1Cl ; method: p24 ; read-out: EC95 ; cells: MT-4 ; value: <10 µM
Nc1ccn([C@H]2CC[C@@H](CO)O2)c(=O)n1 ; read-out: EC50 ; cells: Primary lymphocytes + Lymphocytes ; value: 0.03 µM
Cc1cn([C@@H]2CC[C@H](CO)O2)c(=O)[nH]c1=O ; method: RT activity ; strain: LAI ; read-out: EC50 ; cells: PBMC ; value: >100 µM
Cc1cn(CC2(COCP(=O)(OC(C)C)OC(C)C)CC=CC2)c(=O)[nH]c1=O ; read-out: EC50 ; cells: MT-4 ; value: >100 µg/mL
Cc1cc(C)nc(NS(=O)(=O)c2ccc(N=C3C(=O)Nc4ccc(Cl)cc43)cc2)n1 ; method: cytopathic effect / MTT ; strain: IIIB ; read-out: EC50 ; cells: MT-4 ; value: 10.3 µg/mL
O=S(=O)(O)OC1C(OS(=O)(=O)O)C(OS(=O)(=O)O)C(OS(=O)(=O)O)C(OS(=O)(=O)O)C1OS(=O)(=O)O ; method: cytopathic effect / MTT ; strain: NL4-3 ; read-out: EC50 ; cells: MT-4 ; mutations: GP120-N323D ; value: 9.6 µg/mL

Blank or dashed fields: not listed here. ECn is the concentration giving n% inhibition of infection, replication or growth.